Tested on: HIV-1 (wildtype IIIB)
Format: cell-based
Settings: selectivity index, ratio of CC50 to IC50
Description: A rapid, sensitive and automated assay procedure was used for the in vitro evaluation of anti-HIV agents. An HIV-1 (wildtype IIIB) transformed T4-cell line, MT-4, which was previously shown (Koyanagi et al., Int. J Cancer, 36, 445-451, 1985) to be highly susceptible to and permissive for HIV infection, served as the target cell line. Inhibition of the HIV-induced cytopathic effect was used as the end point. […] The percent protection achieved by the compound in HIV-infected cells was calculated by the following formula: [formula]
whereby (ODT)HIV is the optical density measured with a given concentration of the test compound in HIV-infected cells; (ODC)HIV is the optical density measured for the control untreated HIV-infected cells; (ODC)MOCK is the optical density measured for the control untreated mock-infected cells; all optical density values were determined at 540 nm. […] The ratio of CC50 to IC50 was defined as the selectivity index (SI).

SMILES	SI
Cc1cc(N)cc(C)c1Oc1nc(N)nc(Nc2ccc(C#N)cc2)n1 [Compound 78]	6
N#Cc1ccc(Nc2nc(N)nc(Oc3c(F)c(F)c(O)c(F)c3F)n2)cc1 [Compound 80]	>1
Cc1c(Cl)cc(N)c(Oc2nc(N)nc(Nc3ccc(C#N)cc3)n2)c1Cl [Compound 81]	>37
COC(=O)c1cc(OC)c(OC)c(OC)c1Nc1nc(N)nc(Nc2ccc(C#N)cc2)n1 [Compound 82]	67
N#Cc1ccc(Nc2nc(N)nc(Oc3cccc4[nH]ccc34)n2)cc1 [Compound 83]	126
CC(=O)c1cc(C)c2c(c1Oc1nc(N)nc(Nc3ccc(C#N)cc3)n1)CCC2 [Compound 84, 4-[[4-[(5-acetyl-2,3-dihydro-7-methyl-1H-inden-4-yl)oxy]-6-amino-1,3,5-triazin-2-yl]amino]benzonitrile]	45129

— US6774235B2, “Trisubstituted 1,3,5-triazine derivatives” (Janssen Pharmaceutica N.V., priority 1998, dated 2004)
